Assay results published in publication PMC8765435, “In Vitro Antimalarial Activity of Inhibitors of the Human GTPase Rac1” (Antimicrobial Agents and Chemotherapy, 2022).

Columns and labels:
[1] = tested on: P. falciparum asexual parasites, chloroquine-sensitive D10 strain; assay: Drug susceptibility assay (pLDH), asexual parasites, D10 strain; details: read-out: Mean IC50 ± SD, D10, CQ-sensitive D10 strain, 72 h
[2] = tested on: P. falciparum asexual parasites, chloroquine-resistant W2 strain; assay: Drug susceptibility assay (pLDH), asexual parasites, W2 strain; details: read-out: Mean IC50 ± SD, W2, CQ-resistant W2 strain, 72 h

O=C(Nc1ccc(S(=O)(=O)N2CCCCC2)cc1)c1cc(-c2ccccc2O)n[nH]1
IC50 [1]: 7.14 µM
IC50 [2]: 25.4 µM
